This passage reports Potency results from ChEMBL document CHEMBL1201862, “PubChem BioAssay data set” (2004).

The other results are listed elsewhere or left out. These assays gave more results; the selection is not random. Calls of active or inactive are those of the source. The rule behind the calls is not given here.

A short description of the experiment: qHTS Assay for Inhibitors of Hepatitis C Virus (HCV). It is filed as functional.
Consider `O=[N+]([O-])c1cc([N+](=O)[O-])c(OC2CCCCC2O)c([N+](=O)[O-])c1` (stereo unspecified), for which the Potency entry is “inactive”.
